Anti-infective test results gathered from many reports (values: NIAID ChemDB through PubChem).

All rows: tests in culture; agent: Vaccinia virus

Rows are shuffled and stem from different studies. ECn is the concentration giving n% inhibition of infection, replication or growth. Blank or dashed fields: not listed here.

compound | cell line | read-out | result
Nc1ncnc2c1ncn2[C@@H]1C[C@H](COP(=O)(O)O)[C@@H](O)[C@H]1O | PRK | EC50 | >400 µg/mL
N#Cc1cc([C@H]2C[C@H](O)[C@@H](CO)O2)c(F)cc1F | E6SM | EC50 | >400 µg/mL
CCc1nc(CC(=O)NN=C(C)C)nn1CC | - | MIC | >400 µg/mL
Cc1nc(C(C)C)c2[nH]c(=S)[nH]c(=O)n12 | PRK | EC50 | >200 µg/mL
COCC1=C[C@@H](n2cnc3c(N)ncnc32)[C@H](O)[C@@H]1O | PRK | EC50 | 20 µg/mL
C=CCc1nc(C)n2c(=O)[nH]cnc12 | PRK | EC50 | >100 µg/mL
CCc1cn([C@H]2C[C@H](O)[C@@H](CO)O2)c(=O)[nH]c1=O | HSF | EC50 | 2.7 µg/mL
COc1ccc(-n2c(Cc3nc4n(n3)CCCC4)n[nH]c2=S)cc1 | - | MIC | 80 µg/mL
CSCC1=C[C@@H](n2cnc3c(N)ncnc32)[C@H](O)[C@@H]1O | PRK | EC50 | 70 µg/mL
Nc1nc(N)c2ncn(C[C@@H](CF)OCP(=O)(O)O)c2n1 | E6SM | EC50 | >600 µM
O=C(C1CC1)N(O)c1ccc(Cl)cc1 | E6SM | EC50 | >80 µg/mL
Nc1ncc2ncn(C[C@H](CF)OCP(=O)(O)O)c2n1 | E6SM | EC50 | >600 µM
CCSC1NN=C(Cc2nc(C)n(C)n2)N1c1ccccc1 | - | MIC | 80 µg/mL
O=C(CCC1CCCCC1)N(O)c1ccc(Cl)cc1 | E6SM | EC50 | >16 µg/mL
CC1=C[C@@H](n2cnc3c(N)ncnc32)[C@H](O)[C@@H]1O | PRK | EC50 | 0.7 µg/mL
C[C@@H](Cn1cnc2c(=O)[nH]c(N)nc21)OCP(=O)(O)O | E6SM | EC50 | ≥600 µM
CCn1nc(-c2ccc(Cn3ccc4ccccc43)cc2)nc1C | - | MIC | 80 µg/mL
Cc1cc([C@@H]2C[C@H](O)[C@@H](CO)O2)c(F)cc1F | E6SM | EC50 | >400 µg/mL
C[C@H](Cn1cnc2c(N)nc(N)nc21)OCP(=O)(O)O | E6SM | EC50 | >1200 µM
Cc1nc(Cc2ccccc2)c2[nH]c(=S)[nH]c(=O)n12 | PRK | EC50 | 150 µg/mL
Cc1nc(CC(=O)NN)nn1C | - | MIC | >400 µg/mL
OC[C@H]1O[C@@H](c2cc(Br)c(F)cc2F)C[C@@H]1O | E6SM | EC50 | >400 µg/mL
Nc1nc2c(ncn2C[C@H](CO)OCP(=O)(O)O)c(=O)[nH]1 | E6SM | EC50 | 30 µM
OC[C@H]1O[C@@H](c2cc(F)c(F)cc2F)C[C@@H]1O | E6SM | EC50 | >400 µg/mL
C[C@@H](Cn1cnc2c(N)nc(N)nc21)OCP(=O)(O)O | E6SM | EC50 | >1200 µM
Nc1ncnc2c1ncn2[C@@H]1C[C@H](CO)[C@@H](O)[C@H]1O | PRK | EC50 | 2 µg/mL
Nc1ncnc2c1ncn2C[C@H](CO)OCP(=O)(O)O | E6SM | EC50 | 36 µM
CCCc1cn([C@H]2C[C@H](O)[C@@H](COP(=O)(O)O)O2)c(=O)[nH]c1=O | HEP-2 | EC50 | >797 µg/mL
CC1(C)OC2C(O1)[C@@H](COS(=O)(=O)NC(=O)OC(COCc1ccccc1)OCc1ccccc1)O[C@H]2n1ccc(=O)[nH]c1=O | VERO | EC50 | 54 µg/mL

The first 4 rows once more:

compound | cell line | read-out | result
Nc1ncnc2c1ncn2[C@@H]1C[C@H](COP(=O)(O)O)[C@@H](O)[C@H]1O | PRK | EC50 | >400 µg/mL
N#Cc1cc([C@H]2C[C@H](O)[C@@H](CO)O2)c(F)cc1F | E6SM | EC50 | >400 µg/mL
CCc1nc(CC(=O)NN=C(C)C)nn1CC | - | MIC | >400 µg/mL
Cc1nc(C(C)C)c2[nH]c(=S)[nH]c(=O)n12 | PRK | EC50 | >200 µg/mL